What all share (format): cell-based
Holding throughout (conditions): SI = (IC50 A549)/(IC50 Amoeba)

The test system of data set [1] is Balamuthia mandrillaris trophozoites. Nature of the data set: CellTiter-Glo 2.0 trophocidal assay, B. mandrillaris. The protocol:
Pathogenic Balamuthia mandrillaris (CDC:[…]; American Type Culture Collection (ATCC) 50209), a GAE isolate, isolated from a pregnant baboon at the San Diego Zoo in 1986 was donated by Luis Fernando […] University, Mexico [43]. Trophozoites were routinely grown axenically in Balamuthia mandrillaris Itson (BMI) media at 37 °C, 5% CO2 in vented 75 cm^2 tissue culture flasks (Olympus, El Cajon, CA, USA), until the cells were 80-90% confluent. For sub-culturing, 0.25% Trypsin-EDTA (Gibco, Gaithersburg, MD, USA) cell detachment reagent was used to detach the cells from the culture flasks. The cells were collected by centrifugation at 4000 rpm at 4 °C. Complete BMI media is produced by the addition of 10% fetal bovine serum (FBS) and 125 μg of penicillin/streptomycin antibiotics. The trophocidal activity of compounds was assessed using the CellTiter-Glo 2.0 luminescent viability assay (Promega, Madison, WI, USA), as previously described. Trophozoites were routinely cultured as described above and only logarithmic trophozoites were used. […] Inhibitors were assessed for percent inhibition using the criteria of ≤33% growth inhibition (no inhibition), 33-67% growth inhibition (moderate inhibition), and ≥67% growth inhibition (strong inhibition). […] We used this process to reduce the number of potential false positives. […] All assays were incubated at each of the parasites' representative growth temperatures, described above, for 72 h. At the 72 h time point, 25 μL of CellTiter-Glo 2.0 reagent was added to all wells of the 96-well plates using the Biomek NX^P automated workstation. The plates were protected from light and contents were mixed using an orbital shaker at 300 rpm at room temperature for 2 min to induce cell lysis. After shaking, the plates were equilibrated at room temperature for 10 min to stabilize the luminescent signal. The adenosine triphosphate (ATP) luminescent signal (relative light units; RLUs) was measured at 490 nm with a SpectraMax I3X plate reader (Molecular Devices, Sunnyvale, CA, USA). Drug inhibitory concentration (IC50) curves were generated using total ATP RLUs, where controls were calculated as the average of replicates using the Levenberg-Marquardt algorithm, using DMSO as the normalization control, as defined in Collaborative Drug Discovery Inc. (CDD) Vault (Burlingame, CA, USA). Values reported are from a minimum of two biological replicates with standard deviations.
(Cellular ATP, detected with luciferase, serves as a proxy for viable cell number.)

For data set [2], the system named is Naegleria fowleri trophozoites. Nature of the data set: CellTiter-Glo 2.0 trophocidal assay, N. fowleri. Here is the method: Pathogenic Naegleria fowleri (ATCC 30215), a clinical isolate obtained from a child in Adelaide, Australia, that died of PAM in 1969 was previously purchased from the American Type Culture Collection (ATCC). Trophozoites were routinely grown axenically at 34 °C in Nelson’s complete medium (NCM) in non-vented 75 cm^2 tissue culture flasks (Olympus, El Cajon, CA, USA), until the cells were 80–90% confluent. For sub-culturing, cells were placed on ice to detach the cells from the culture flasks. The cells were collected by centrifugation at 4000 rpm at 4 °C. Complete NCM media is produced by the addition of 10% FBS and 125 μg of penicillin/streptomycin antibiotics.
The trophocidal activity of compounds was assessed using the CellTiter-Glo 2.0 luminescent viability assay (Promega, Madison, WI, USA), as previously described. Trophozoites were routinely cultured as described above and only logarithmic trophozoites were used. In brief, B. mandrillaris, N. fowleri, or A. castellanii trophozoites cultured in their corresponding media were seeded at 16,000, 3000, or 1440 cells/well into white 96-well plates (Costar 3370), respectively. Initially all compounds were assessed in a single-point drug screen at 10 and 1 μM, as previously described. […] Control wells were supplemented with 0.1% (10 μM screening plate) or 0.01% (1 μM screening plate) DMSO, as the negative controls, or 12.5 μM of chlorhexidine, as the positive control. Following the single-point assays at 10 and 1 µM, we prioritized compounds for progression to IC50 determinations. […] We used this process to reduce the number of potential false positives. Drugs were cherry-picked, dissolved in the media specific to each parasite, and assessed in twofold serial dilutions from the highest concentration of 10 μM. All assays were incubated at each of the parasites’ representative growth temperatures, described above, for 72 h. At the 72 h time point, 25 μL of CellTiter-Glo 2.0 reagent was added to all wells of the 96-well plates using the Biomek NX^P automated workstation. The plates were protected from light and contents were mixed using an orbital shaker at 300 rpm at room temperature for 2 min to induce cell lysis. After shaking, the plates were equilibrated at room temperature for 10 min to stabilize the luminescent signal. The adenosine triphosphate (ATP) luminescent signal (relative light units; RLUs) was measured at 490 nm with a SpectraMax I3X plate reader (Molecular Devices, Sunnyvale, CA, USA). Drug inhibitory concentration (IC50) curves were generated using total ATP RLUs, where controls were calculated as the average of replicates using the Levenberg–Marquardt algorithm, using DMSO as the normalization control, as defined in Collaborative Drug Discovery Inc. (CDD) Vault (Burlingame, CA, USA). Values reported are from a minimum of two biological replicates with standard deviations.

The subject of data set [3] is Acanthamoeba castellanii trophozoites. Nature of the data set: CellTiter-Glo 2.0 trophocidal assay, A. castellanii. Here is the method:
This isolate was also purchased from ATCC. Trophozoites were routinely grown axenically at 27 °C in Protease Peptone-Glucose Media (PG) in non-vented 75 cm^2 tissue culture flasks (Olympus, El Cajon, CA, USA), until the cells were 80–90% confluent. For sub-culturing, cells were mechanically harvested to detach the cells from the culture flasks. The cells were collected by centrifugation at 4000 rpm at 4 °C.
The trophocidal activity of compounds was assessed using the CellTiter-Glo 2.0 luminescent viability assay (Promega, Madison, WI, USA), as previously described. Trophozoites were routinely cultured as described above and only logarithmic trophozoites were used. […] Initially all compounds were assessed in a single-point drug screen at 10 and 1 μM, as previously described. […] We used this process to reduce the number of potential false positives. Drugs were cherry-picked, dissolved in the media specific to each parasite, and assessed in twofold serial dilutions from the highest concentration of 10 μM. All assays were incubated at each of the parasites’ representative growth temperatures, described above, for 72 h. At the 72 h time point, 25 μL of CellTiter-Glo 2.0 reagent was added to all wells of the 96-well plates using the Biomek NX^P automated workstation. The plates were protected from light and contents were mixed using an orbital shaker at 300 rpm at room temperature for 2 min to induce cell lysis. After shaking, the plates were equilibrated at room temperature for 10 min to stabilize the luminescent signal. The adenosine triphosphate (ATP) luminescent signal (relative light units; RLUs) was measured at 490 nm with a SpectraMax I3X plate reader (Molecular Devices, Sunnyvale, CA, USA). Drug inhibitory concentration (IC50) curves were generated using total ATP RLUs, where controls were calculated as the average of replicates using the Levenberg–Marquardt algorithm, using DMSO as the normalization control, as defined in Collaborative Drug Discovery Inc. (CDD) Vault (Burlingame, CA, USA). Values reported are from a minimum of two biological replicates with standard deviations.

Experimental findings from paper PMC7344389, “Discovery of Anti-Amoebic Inhibitors from Screening the MMV Pandemic Response Box on Balamuthia mandrillaris, Naegleria fowleri, and Acanthamoeba castellanii” (Pathogens, 2020) are described below.

Turning to `Cc1nc2ccc(Oc3ccccc3)cc2c2c1CCN2CCc1ccccc1` [MMV1634399], in data set [1], the “Selectivity Index (A549 IC50/B. mandrillaris IC50)” value is listed as at least 13.70.
Still for that read-out and setting: under `Cc1ccc(N2CCC(CCOc3ccc(S(C)(=O)=O)cc3)CC2)nn1` [MMV1634394] stands at least 1.24.
Turning to `Nc1nc(Nc2ccc3nc(-c4ccc(F)cc4)cc(N)c3c2)cc(-c2ccccc2)n1` [MMV1593541], the “Selectivity Index (A549 IC50/N. fowleri IC50)” value in data set [2] worked out at 0.43.
Still for that read-out and setting: then `O=C(Nc1cccc(C2=NCCN2)c1)c1ccc(-c2ccc(C(=O)Nc3cccc(C4=NCCN4)c3)cc2)cc1` [MMV1580853], with at least 2.02; and `CCC(C)NCC(O)Cn1c2ccc(Cl)cc2c2cc(Cl)ccc21` (stereo not drawn) [MMV1578570], with at least 1.56.
Consider `CCc1nc(N)nc(N)c1C#CC(C)c1cc(OC)cc(-c2ccncc2)c1` (stereo not drawn) [MMV1580844], for which, in data set [1], the “Selectivity Index (A549 IC50/B. mandrillaris IC50)” value is reported as at least 19.10.
As for `Clc1cc(Cl)c2c(c1)CCc1ccccc1C2n1ccnc1` (stereo not drawn) [Eberconazole], the “Selectivity Index (A549 IC50/N. fowleri IC50)” value in data set [2] is given as at least 8.23. For the same molecule, the “Selectivity Index (A549 IC50/A. castellanii IC50)” value in data set [3] is reported as at least 2.70.
Consider `O=C1C=C(c2ccccc2)S(=O)(=O)c2ccccc21` [1,1-dioxide 1-thioflavone], for which, in data set [1], the “Selectivity Index (A549 IC50/B. mandrillaris IC50)” value is listed as at least 27.40. For the same molecule, in data set [2], the “Selectivity Index (A549 IC50/N. fowleri IC50)” value is recorded as at least 2.00.
For `COc1ccc2sc3c(c2c1)NC(C)CNC3=O` (stereo not drawn) [MMV1782115], the “Selectivity Index (A549 IC50/N. fowleri IC50)” value in data set [2] was 0.62.
Turning to `O=[N+]([O-])/C(Br)=C/c1ccc(Br)o1` [Furvina], the “Selectivity Index (A549 IC50/A. castellanii IC50)” value in data set [3] was at least 2.38.
With `C[C@H](c1cccc2ccccc12)N(C)Cc1ccccc1` [MMV1782221], the “Selectivity Index (A549 IC50/A. castellanii IC50)” value in data set [3] is at least 2.26.
Consider `O=C(/C(=C/c1ccc(Cl)cc1Cl)n1ccnc1)c1ccc(Cl)cc1` [MMV1634491], for which the “Selectivity Index (A549 IC50/N. fowleri IC50)” value in data set [2] was at least 1.94. The “Selectivity Index (A549 IC50/A. castellanii IC50)” value in data set [3] was at least 2.99.
With `Oc1c(C(Nc2nc3ccccc3s2)c2ccc(OC(F)F)cc2)ccc2cccnc12` (stereo not drawn) [MMV019724], in data set [2], the “Selectivity Index (A549 IC50/N. fowleri IC50)” value is 1.03.
As for `C(=C\c1nc2ccccc2[nH]1)/c1ccc2c(c1)OCO2` [MMV1582495], in data set [1], the “Selectivity Index (A549 IC50/B. mandrillaris IC50)” value is listed as at least 18.50.
As to `CCOC(=O)Nc1cc(NC(C)CC(C)CN(CC)CC)c2nc(-c3ccccc3)c(-c3ccccc3)nc2n1` (stereo not drawn) [MMV1633967], in data set [2], the “Selectivity Index (A549 IC50/N. fowleri IC50)” value was at least 1.22.
As for `C=CCN(C(=O)OCc1ccc([N+](=O)[O-])cc1)C1CCN(CC[C@](C)(CN(C)S(=O)(=O)c2ccccc2)c2ccccc2)CC1` [MMV1782214], the “Selectivity Index (A549 IC50/N. fowleri IC50)” value in data set [2] is given as at least 1.27.
With `Cc1cccc(C)c1C(=O)Nc1nc(-c2ccccn2)cc2ccccc12` [MMV1581558], the “Selectivity Index (A549 IC50/B. mandrillaris IC50)” value in data set [1] is recorded as at least 5.00.
As for `O[C@@](Cn1cnnn1)(c1ccc(F)cc1F)C(F)(F)c1ccc(-c2ccc(OCC(F)(F)F)cc2)cn1` [MMV1634386], the “Selectivity Index (A549 IC50/N. fowleri IC50)” value in data set [2] is on record as at least 4.18. Moreover, in data set [3], the “Selectivity Index (A549 IC50/A. castellanii IC50)” value is at least 10.
As to `Nc1nc(N)c2c(Sc3ccccc3)cccc2n1` [MMV021759], the “Selectivity Index (A549 IC50/B. mandrillaris IC50)” value in data set [1] is at least 2.22.
Take `CN1c2ccc(Cl)cc2N(c2ccccc2)C(=O)c2cn(Cc3ccc(CN4CCOCC4)cc3)nc21` [MMV1782222]: the “Selectivity Index (A549 IC50/N. fowleri IC50)” value in data set [2] is at least 1.85.
